Results deposited as PubChem BioAssay AID504761 (Drosophila RNAi Screening Center, 2011).
In all, the deposit lists about 22,000 reagents; this is an unselected part of those that have a named target and a result. Of all reagents, 116 (0.52%) got an active call. 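Calls depend on retest data that are not deposited; infection was ranked per plate without normalising between plates; the unit of the infection score is not given.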 Raw values vary from plate to plate and are shown uncorrected. Names joined by + are all predicted targets of the reagent. Reagent sequences are not shown. Not given: the amount of reagent, the time to read-out.

Aim: 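Insect host genes that dengue virus relies on to spread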 (primary screen)
Cells: D.Mel-2 cells from Drosophila
Reagents: long dsRNA against Drosophila genes
Conditions: infection with dengue virus type 2; dose and infection time not stated
Measured: 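Cells stained for dengue envelope protein and imaged; percent of infected cells per well on duplicate plates, ranked by infection, with stained nuclei counted for cell number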
Scale: infection score: higher = more virus-infected cells; cell count: higher = more cells in the well
Rule for the call: 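Very low infection ranking in both replicate wells (chance probability at most 0.065), then a retest showing infection dropped 1.5-fold or more at p below 0.05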
Calls: active = confirmed: knock-down lowers infection; inactive = not picked or not confirmed

Gene	DRSC id	infection score, replicate 1	infection score, replicate 2	cell count, replicate 1	cell count, replicate 2	Call
CG7329	DRSC03046	4.7	3.92	6570	6640	inactive
CG7329	DRSC26137	3.19	1.2	6431	6004	inactive
CG7272	DRSC10795	1.67	6.03	6711	6515	inactive
spz6	DRSC04533	2.89	16	6266	4759	inactive
CG5966	DRSC18394	6.31	1.31	6022	6257	inactive
CG11550	DRSC14326	4.33	1.48	2449	6803	inactive
magu	DRSC06832	7.24	11	5941	6188	inactive
CG5281	DRSC15761	2.44	5.81	6109	6623	inactive
Der-1	DRSC00301	1.19	8.18	5949	6531	inactive
foi	DRSC10719	0.79	1.88	5189	5891	inactive
foi	DRSC29596	2.26	0.85	574	468	inactive
His2B:CG33870 + His2B:CG33868 + His2B:CG33882 + 21 more	DRSC03757	8.13	12.2	6791	6601	inactive
CG31445	DRSC14443	1.77	1.85	5999	6550	inactive
CG31445	DRSC28642	27.7	11.3	4222	1794	inactive
LManV	DRSC03223	17.1	30.6	6711	5498	inactive
LManV	DRSC24176	3.7	6.59	6616	6053	inactive
CG12945	DRSC14573	3.79	7.68	6382	6198	inactive
beat-Ic	DRSC01524	0.92	0.55	6176	5807	inactive
beat-Ic	DRSC03491	6.16	0.86	5767	6957	inactive
beat-Ic	DRSC23508	5.53	4.53	6547	6541	inactive
TTLL15	DRSC15543	2.08	4.8	5958	6224	inactive
CG30393	DRSC04253	7.34	9.21	6482	6429	inactive
CG30393	DRSC24833	3.4	2.6	6639	6203	inactive
Dhps	DRSC10948	0.52	0.48	6185	6272	inactive
I-2	DRSC11194	1.78	2.39	5952	6279	inactive
I-2	DRSC23300	0.73	3.43	5633	6653	inactive
dUTPase	DRSC01998	27.2	9.17	6229	6346	inactive
dUTPase	DRSC29469	11.7	5.02	5609	1015	inactive
CG6479	DRSC10647	4.43	4.55	6615	6526	inactive
CG42733	DRSC25375	8.44	9.99	6525	6457	inactive
B4	DRSC01868	26.8	16.6	4309	6155	inactive
B4	DRSC03175	3.49	4.6	6509	6627	inactive
sha	DRSC06331		19.3	539	4873	inactive
TTLL1A	DRSC20121	1.64	0.16	6589	6940	inactive
Obp83g	DRSC12269	3.51	6.35	6434	6154	inactive
Obp83g	DRSC28322	20.1	9.49	5502	5469	inactive
CG11267	DRSC09833	0.55	2.05	6160	6200	inactive
CG1440	DRSC17915	2.28	3.71	6273	6571	inactive
Sytbeta	DRSC10009	3.82	4.82	6094	6116	inactive
Sytbeta	DRSC10351	1.89	3.71	6122	5950	inactive
CG5412	DRSC15796	5.69	6.71	6744	6300	inactive
cav	DRSC15995	7.23	2.84	6291	6374	inactive
cav	DRSC26206	11.4	2.91	6028	5912	inactive
CG17019	DRSC06642	6.93	4.58	6086	5999	inactive
Best2	DRSC09712	0.99	3.69	6162	6078	inactive
Pfdn6	DRSC10915	5.04	8.29	6310	6173	inactive
CG14650	DRSC12236	3.62	6.53	6738	6880	inactive
CG14650	DRSC23822	13.7	12.2	6303	4698	inactive
meep	DRSC07948	2.22	0.96	6039	6050	inactive
meep	DRSC25511	1.81	6.22	6347	6075	inactive
Lkr	DRSC09754	4.51	18.8	5626	5856	inactive
Rcd2	DRSC11756	6.88	15.3	6647	6636	inactive
CG30122	DRSC06935	1.19	0.93	6129	6440	inactive
CG1468	DRSC17946	1.58	10.2	6847	6289	inactive
CG1468	DRSC25538	24.2	25.6	6193	5890	inactive
AstC-R1	DRSC10799	8.15	2.5	6635	6475	inactive
AstC-R1	DRSC29648	9.28	16.9	2469	5767	inactive
Drsl4	DRSC08034	0.14	0.49	6514	6492	inactive
Drsl4	DRSC27159	27.8	16.7	5071	7135	inactive
